{"sequences": {"note": "The chains behind the UniProt entries cited, without tags or fusion partners. Where a name states a change or a piece, a line headed by the entry shows the natural chain unless it says otherwise.", "UniProt Q9UBH6": "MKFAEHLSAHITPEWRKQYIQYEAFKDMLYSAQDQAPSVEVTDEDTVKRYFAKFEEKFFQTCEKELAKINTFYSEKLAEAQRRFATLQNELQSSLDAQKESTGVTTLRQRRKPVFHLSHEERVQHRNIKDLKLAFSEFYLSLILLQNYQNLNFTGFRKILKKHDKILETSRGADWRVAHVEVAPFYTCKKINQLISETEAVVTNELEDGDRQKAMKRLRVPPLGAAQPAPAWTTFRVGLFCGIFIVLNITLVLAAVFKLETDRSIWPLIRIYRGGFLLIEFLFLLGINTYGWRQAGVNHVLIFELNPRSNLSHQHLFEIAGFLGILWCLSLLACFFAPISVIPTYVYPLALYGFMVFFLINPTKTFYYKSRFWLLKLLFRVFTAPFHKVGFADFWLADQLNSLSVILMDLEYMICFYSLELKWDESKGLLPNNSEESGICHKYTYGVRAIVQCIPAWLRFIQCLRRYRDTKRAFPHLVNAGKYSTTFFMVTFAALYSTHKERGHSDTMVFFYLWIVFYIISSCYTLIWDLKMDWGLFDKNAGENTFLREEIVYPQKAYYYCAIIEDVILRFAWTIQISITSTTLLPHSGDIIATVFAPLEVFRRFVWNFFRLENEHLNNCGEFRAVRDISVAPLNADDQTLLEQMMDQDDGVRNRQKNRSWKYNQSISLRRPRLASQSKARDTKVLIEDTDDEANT"}, "source": "patent US20060084791A1", "biological_target": "human polytropic/xenotropic receptor encoded by the human RMC1 locus (human) (UniProt Q9UBH6)", "assay": "cell-based or functional assay", "data": [{"substance": "SL3-2 envelope polypeptide (wild type envelope protein of Murine Leukaemia Virus SL3-2) (from UniProt P03388 33-640)", "values": [{"measurement": "titer of mini-virus on HeLa cells", "result": 0, "unit": "cfu/mL"}]}]}
